# Experimental data as given in US11179663B1, “Polyurethane-based materials” (Aviro LLC, priority 2021, dated 2021).
# System: COVID-19
# Assay: coronavirus deactivation test after attachment to the surfaces, qPCR for genes indicative of COVID-19 activity
# Conditions: Example 3, foam coated with a single antiviral compound
substance,measurement,value
Benzalkonium chloride [BC],% Deactivated of that captured,30.1%
